Results of unrelated studies side by side (data: NIAID ChemDB).

All rows: growth or infection tests; species: Mycobacterium tuberculosis

Percent inhibition refers to the dose given; in toxicity tests it is the harm to the cells. MIC bound comes from a single tested concentration. MIC50, MIC90 and the like: level of inhibition, or share of isolates inhibited. Blank or dashed fields: not listed here. Two numbers with a dash give a range or band. Lines come from different laboratories, so protocols vary.

smiles	tested at	measure	changes	strain	method	result
NC(=O)NCCCN1c2ccccc2Sc2ccccc21	25 µg/mL	inhibition	-	H37Rv	agar	10%
Cc1cccc2c1N=C(c1ccccc1)C2CN1CCC(NS(C)(=O)=O)C1	-	MIC	-	-	-	1.5 µM
CN1CCN(c2cc3c(cc2F)c(=O)c(C(=O)O)cn3-c2ccc([N+](=O)[O-])cc2)CC1	6.25 µg/mL	inhibition	-	H37Rv	BACTEC	0%
CC(=O)OCCN1CCN(CCCN2c3ccccc3Sc3ccc(C(F)(F)F)cc32)CC1	12.5 µg/mL	inhibition	-	H37Rv	BACTEC	99%
COc1ccc(-c2cn3cc(Cl)sc3n2)cc1	-	MIC	-	H37Rv	-	>6.25 µg/mL
COc1nc2ccc(Br)cc2cc1C(c1ccccc1)C(O)(CCN(C)C)c1cccc2c1CCCC2	-	MIC90	-	H37Rv	-	44.45 µg/mL
NNC(=O)c1ccncc1	-	MIC80	Streptomycin-resistant	35820	broth dilution	0.2 µM
Cc1cc(Oc2ccc(/C=N/NC(=O)c3nc4ccccc4[nH]3)cc2)ccc1Cl	-	MIC	-	H37Rv	resazurin	3.125 µg/mL
COc1ccc(CN2CCN(S(=O)(=O)c3ccc(-n4cccn4)cc3)CC2)cc1	-	MIC	-	-	-	>200 µM
Clc1cn2cc(-c3ccncc3)nc2s1	6.25 µg/mL	inhibition	-	H37Rv	-	0%
CCCCCCCCP(=O)(O)OP(=O)(O)OC[C@H]1O[C@@H](n2ccc(N)nc2=O)[C@H](O)[C@@H]1O	-	MIC bound	-	H37Rv	resazurin	>6.25 µg/mL
COCCN(C1CCN(Cc2c(-c3ccccc3)[nH]c3c(C)cccc23)C1)S(C)(=O)=O	-	MIC	-	-	-	1.1 µM
Nc1cc(O)c2cc(N=Nc3ccc(N=Nc4ccc(N=Nc5ccc6cc(S(=O)(=O)O)cc(S(=O)(=O)O)c6c5)c5ccccc45)c4cc(S(=O)(=O)O)ccc34)c(S(=O)(=O)O)cc2c1	-	MIC	-	H37Rv	BACTEC	≥128 µg/mL
COc1cc(/C=C/C(=O)NNC(=O)c2ccncc2O)cc(OC)c1O	-	MIC	-	H37Rv	resazurin	26.8 µM
COc1nc2ccc(Br)cc2cc1[C@@H](c1ccccc1)[C@@](O)(CCN(C)C)c1cccc2ccccc12	-	MIC80	Rifampicin-resistant	19000	broth dilution	<2 µM
COc1cccc(C2SCC(=O)N2C(=O)NCCCN2c3ccccc3Sc3ccccc32)c1	50 µg/mL	inhibition	-	H37Rv	agar	53%
COc1ccc(Oc2ccc(/C=N/NC(=O)c3nc4ccc([N+](=O)[O-])cc4[nH]3)cc2)cc1	-	MIC	-	H37Rv	resazurin	6.25 µg/mL
NNC(=O)C(=O)C1CC(c2ccc(Cl)cc2)=NNC1=O	6.25 µg/mL	inhibition	-	H37Rv	resazurin	-9%
O=[N+]([O-])c1cn2c(n1)OC[C@@H](OCc1ccc(Oc3ccc(C(F)(F)F)cc3)nc1)C2	-	MIC90	-	-	low oxygen	3.5 µM
Cc1nc2ccc3c(ccc4nc(C)c(N=Nc5ccc(C(=N)N)cc5)c(O)c43)c2c(O)c1N=Nc1ccc(C(=N)N)cc1	-	MIC bound	-	H37Rv	BACTEC	>12.5 µg/mL
CC(C)COc1ccc(NC(=S)Nc2ccc(-c3ccccn3)cc2)cc1	-	MIC	-	H37Rv	-	>50 µg/mL
Cc1cccc(/C=N/C(=O)NCCCN2c3ccccc3Sc3ccccc32)c1	25 µg/mL	inhibition	-	H37Rv	agar	24%
COc1nc2ccc(Br)cc2cc1C(c1ccccc1)C(O)(CCCN(C)C)c1cccc2ccccc12	-	MIC90	-	H37Rv	-	56.96 µg/mL
O=[N+]([O-])c1cn2c(n1)OC[C@@H](OCc1ccc(COc3ccc(OC(F)(F)F)cc3)nc1)C2	-	MIC90	-	-	resazurin	0.03 µM
COCCOc1nc2ccc(Br)cc2cc1C(c1ccccc1)C(O)(CCN(C)C)c1cccc2ccccc12	-	MIC90	-	H37Rv	-	9.5 µg/mL
O=C1C2C3C=CC(O3)C2C(=O)N1Cc1ccncc1	-	MIC bound	-	H37Rv	BACTEC	>12.5 µg/mL
COc1ccccc1-c1cn2ccsc2n1	6.25 µg/mL	inhibition	-	H37Rv	-	23%
CO[C@H]1/C=C/O[C@@]2(C)Oc3c(C)c(O)c4c(O)c(c(/C=N/N5CCN(C)CC5)c(O)c4c3C2=O)NC(=O)/C(C)=C\C=C\[C@H](C)[C@H](O)[C@@H](C)[C@@H](O)[C@@H](C)[C@H](OC(C)=O)[C@@H]1C	-	MIC80	Bedaquiline-resistant I66M	-	broth dilution	0.04 µM
CCCCCCCCCCCCNNC(=O)C1C(c2cc(OC)c(OC)c(OC)c2)c2cc3c(cc2C(O)C1CO)OCO3	-	MIC	-	H37Rv	BACTEC	≥12.5 µg/mL
O=S(=O)(NC1CCN(Cc2ccncc2)CC1)c1ccc(-n2cccn2)cc1	-	MIC	-	H37Rv	-	0.8–3.1 µM
CCN(CC)c1ccc(N=C2C=C(C(=O)Nc3ccc(S(C)(=O)=O)cc3)C(=O)c3ccccc32)c(C)c1	12.5 µg/mL	inhibition	-	H37Rv	BACTEC	0%
O=[N+]([O-])c1cn2c(n1)OC[C@@H](OCc1ccc(C#Cc3ccc(C(F)(F)F)cc3)cc1)C2	-	MIC90	-	-	low oxygen	>128 µM
CC1(C)CCC[C@](C)([C@H]2CC[C@]3(C)[C@@H]2[C@H](O)C[C@@H]2[C@@]4(C)CC[C@H](O)C(C)(C)[C@@H]4[C@H](O)C[C@]23C)O1	-	MIC	-	H37Rv	BACTEC	≥12.5 µg/mL
O=[N+]([O-])c1cn2c(n1)OC[C@@H](OCc1ccc(N3CCN(c4ccc(OC(F)(F)F)cc4)CC3)nc1)C2	-	MIC90	-	-	low oxygen	0.9 µM
Cc1ccn2nc(S(=O)(=O)Nc3c(Br)ccc4cccnc34)nc2n1	-	MIC50	INH RIF resistant	X59	visual reading	0.5 µM
COCC(O)Cn1cc([N+](=O)[O-])nc1C	-	MIC bound	-	H37Rv	resazurin	>6.25 µg/mL
O=C(/C=C/c1cc(Cl)cc(Cl)c1)NNC(=O)c1ccncc1	-	MIC	-	H37Rv	resazurin	67.4 µM
Cc1cc(O)c2c(c1)[C@H](O)CCC2=O	-	MIC	-	H37Rv ATCC 27294 (drug-susceptible)	-	100 µg/mL
Cc1cccc(Oc2nc(N)nc3nc[nH]c23)c1	6.25 µg/mL	inhibition	-	H37Rv	BACTEC	0%
O=C(O)c1cn(-c2ccc([N+](=O)[O-])cc2F)c2cc(N3CCOCC3)c(F)cc2c1=O	6.25 µg/mL	inhibition	-	H37Rv	BACTEC	49%
Cc1cccc(Oc2nc(Cl)nc3nc[nH]c23)c1	6.25 µg/mL	inhibition	-	H37Rv	BACTEC	0%
O=[N+]([O-])c1cn2c(n1)OC[C@@H](OCc1ccc(/C=C/c3ccc(C(F)(F)F)nc3)cc1)C2	-	MIC90	-	-	resazurin	0.045 µM
O=C(NCCCN1c2ccccc2Sc2ccccc21)N1C(=O)/C(=C\c2ccc(O)cc2)SC1c1ccc(O)cc1	50 µg/mL	inhibition	-	H37Rv	agar	76%
O=C(CN1c2ccccc2Sc2ccccc21)SC1=NC(=O)/C(=C/c2ccc(Cl)cc2)S1	12.5 µg/mL	inhibition	-	H37Rv	BACTEC	14%
COc1nc2ccc(-c3ccccc3)cc2cc1C(c1ccccc1)C(O)(CCN(C)C)c1cccc2ccccc12	-	MIC90	-	H37Rv	-	8.76 µg/mL
O=C(/C=C/c1ccc(F)cc1)NNC(=O)c1ccncc1	-	MIC	-	H37Rv	resazurin	89.5 µM
O=c1c2ccccc2c2nccn2c2cc(Cl)ccc12	6.25 µg/mL	inhibition	-	H37Rv	resazurin	54%
Cc1ccc2nc(C(=O)N/N=C/c3ccc(Oc4ccc(Cl)cc4Cl)cc3)[nH]c2c1	-	MIC	-	H37Rv	resazurin	3.125 µg/mL
O=[N+]([O-])c1cn2c(n1)OC[C@@H](OCc1ccc(N3CCC(Oc4ccc(OC(F)(F)F)cc4)CC3)cc1)C2	-	MIC90	-	-	low oxygen	2.2 µM
O=C(/C=C/c1ccc(O)c(O)c1)NNC(=O)c1ccncc1O	-	MIC	-	H37Rv	resazurin	18.5 µM
O=C1CSC(c2ccccc2O)N1C(=O)NCCCN1c2ccccc2Sc2ccccc21	25 µg/mL	inhibition	-	H37Rv	agar	33%
O=Nc1c(-c2ccc(Cl)cc2)nc2sc(Cl)cn12	6.25 µg/mL	inhibition	-	H37Rv	-	6%
COc1ccc2c(c1)n([O-])c1cc(C#N)ccc1[n+]2=O	-	MIC	-	ETA-R	-	12.5 µg/mL
COc1ccc(OC)c(-c2cn3cc(Cl)sc3n2)c1	-	MIC	-	H37Rv	-	>6.25 µg/mL
COC1CN(Cc2ccncc2)CCC1NS(=O)(=O)c1ccc(-n2cccn2)cc1	-	MIC	-	-	-	25 µM
CN(Cc1ccc(CO[C@@H]2COc3nc([N+](=O)[O-])cn3C2)cc1)Cc1ccc(OC(F)(F)F)cc1	-	MIC90	-	-	resazurin	0.03 µM
O=C1CSC(c2cccc([N+](=O)[O-])c2)N1C(=O)NCCCN1c2ccccc2Sc2ccccc21	25 µg/mL	inhibition	-	H37Rv	agar	32%
N#CCCN(CCC#N)c1ccc(/C=C2/N=C(CN3C(=O)c4ccccc4C3=O)OC2=O)cc1	12.5 µg/mL	inhibition	-	H37Rv	BACTEC	17%
COc1ncc(F)c2nc(S(=O)(=O)Nc3c(O)cccc3C(C)O)nn12	-	MIC50	INH RIF resistant	P887	visual reading	0.5 µM
CO[C@H]1/C=C/O[C@@]2(C)Oc3c(C)c(O)c4c(O)c5c(c(O)c4c3C2=O)CN=C(N5)/C(C)=C\C=C\[C@H](C)[C@H](O)[C@@H](C)[C@@H](O)[C@@H](C)[C@H](OC(C)=O)[C@@H]1C	-	MIC	-	243	-	>1 µg/mL
O=C1C(=O)N(C2CCCCC2)C2C(=O)OCC12	-	MIC bound	-	H37Rv	BACTEC	>12.5 µg/mL
O=C(O)c1cn(C2CC2)c2cc(N3CCN(Cc4ccc5cccc(O)c5n4)CC3)c(F)cc2c1=O	6.25 µg/mL	inhibition	-	H37Rv	BACTEC	98%
CCOC(=O)C(Cc1ccccc1)NP(=O)(CCC(=O)N1C[C@@H](n2cnc3c(=O)[nH]c(N)nc32)[C@H](OC[C@@H](O)P(=O)(NC(Cc2ccccc2)C(=O)OCC)NC(Cc2ccccc2)C(=O)OCC)C1)NC(Cc1ccccc1)C(=O)OCC	-	MIC90	-	H37Ra	resazurin / fluorescence	22 µM
CN(C)CCC(O)(c1cccc2ccccc12)C(c1ccccc1)c1cc2cc(Br)ccc2nc1N1CCOCC1	-	MIC90	-	H37Rv	-	2.43 µg/mL
C=CCn1c(SC)nc2c(c1=O)CCCC2	-	MIC bound	-	H37Rv	BACTEC	>12.5 µg/mL
Cc1ccc(-c2cn3ccsc3n2)cc1	-	MIC	-	H37Rv	-	>6.25 µg/mL
CCCCCCCCCCOc1nc(N)nc2c1ncn2CC(=O)N[C@@H](Cc1ccccc1)C(=O)OC	6.25 µg/mL	inhibition	-	H37Rv	BACTEC	0%
O=C(O)c1cn(-c2ccc([N+](=O)[O-])cc2F)c2cc(N3CCN(Cc4ccc5cccc(O)c5n4)CC3)c(F)cc2c1=O	6.25 µg/mL	inhibition	-	H37Rv	BACTEC	47%
OCC(O)COCCCCCCCCCCCC1C=CCC1	-	MIC	-	H37Rv	BACTEC	0.78 µg/mL
O=C(N/N=C/c1ccc(Oc2cccc3ccccc23)cc1)c1nc2ccc([N+](=O)[O-])cc2[nH]1	-	MIC	-	H37Rv	resazurin	25 µg/mL
O=C(NCC(=O)N1CCCC1)N/N=C/c1ccccc1O	-	MIC bound	-	H37Rv	BACTEC	>12.5 µg/mL
CC(C)=CCOc1c2ccoc2cc2oc(=O)ccc12	-	MIC100	Isoniazid-resistant	H37Rv clinical isolate CRY1	resazurin	200 µg/mL
Cc1ccc(Oc2nc(Cl)nc3nc[nH]c23)cc1	6.25 µg/mL	inhibition	-	H37Rv	BACTEC	0%
CC[C@H](CC[C@@H](C)[C@H]1CC[C@H]2[C@@H]3CC=C4C[C@@H](O)CC[C@]4(C)[C@H]3CC[C@]12C)C(C)C	12.8 µg/mL	inhibition	-	H37Rv	BACTEC	29%
O=C(/N=C/c1ccc(O)cc1)NCCCN1c2ccccc2Sc2ccccc21	50 µg/mL	inhibition	-	H37Rv	agar	50%
O=[N+]([O-])c1cn2c(n1)OC[C@@H](OCc1ccc(-c3ccc(Oc4ccc(OC(F)(F)F)cc4)cc3)cc1)C2	-	MIC90	-	-	resazurin	0.045 µM
COc1ccccc1/C=N/C(=O)NCCCN1c2ccccc2Sc2ccccc21	50 µg/mL	inhibition	-	H37Rv	agar	43%
CCOC(=O)c1cnc2c(cnn2CC)c1N1CCN(CCO)CC1	6.25 µg/mL	inhibition	-	H37Rv	resazurin	-48%
O=C(N/N=C/c1ccc(Oc2cc(Cl)cc(Cl)c2)cc1)c1nc2ccc(Cl)cc2[nH]1	-	MIC	-	H37Rv	resazurin	12.5 µg/mL

Repeating the first 5 entries:

smiles,tested at,measure,changes,strain,method,result
NC(=O)NCCCN1c2ccccc2Sc2ccccc21,25 µg/mL,inhibition,-,H37Rv,agar,10%
Cc1cccc2c1N=C(c1ccccc1)C2CN1CCC(NS(C)(=O)=O)C1,-,MIC,-,-,-,1.5 µM
CN1CCN(c2cc3c(cc2F)c(=O)c(C(=O)O)cn3-c2ccc([N+](=O)[O-])cc2)CC1,6.25 µg/mL,inhibition,-,H37Rv,BACTEC,0%
CC(=O)OCCN1CCN(CCCN2c3ccccc3Sc3ccc(C(F)(F)F)cc32)CC1,12.5 µg/mL,inhibition,-,H37Rv,BACTEC,99%
COc1ccc(-c2cn3cc(Cl)sc3n2)cc1,-,MIC,-,H37Rv,-,>6.25 µg/mL